Results of unrelated studies side by side (data: NIAID ChemDB).

All rows: whole-cell or culture tests; species: HIV-1; read by: syncytia; measure: EC50

ECn: concentration that inhibits the pathogen or its effect by n%.

compound | cell line | mutations | strain or isolate | result
CCc1c(Sc2cc(C)cc(C)c2)n(COCCO)c(=O)[nH]c1=O | CEM | RT-K103N | IIIB TIBO R82913-resistant (RT K103N) | 0.35 µM
C[C@H](CCC(=O)NCC(=O)N[C@@H](Cc1cc(I)c(O)cc1I)C(=O)O)[C@H]1CC[C@H]2[C@@H]3[C@H](O)CC4C[C@H](O)CC[C@]4(C)[C@H]3C[C@H](O)[C@]12C | H9 |  | IIIB | >100 µg/mL
Cc1cccc(OCc2ccccc2)c1 | C8166 |  | IIIB | 44.87 µg/mL
Cc1cn([C@H]2C[C@H](N=[N+]=[N-])[C@@H](CO)O2)c(=O)[nH]c1=O | C8166 |  |  | 0.03177 µM
CC(CCC(=O)N[C@@H](Cc1ccc(O)cc1)C(=O)O)C1CCC2C3CCC4C[C@H](O)CCC4(C)C3C[C@H](O)C12C | H9 |  | IIIB | <0.01 µg/mL
N#Cc1c(Cl)c(Cl)c2nc(N)nc(N)c2c1Cl | C8166 |  | IIIB | 1.8 µg/mL
CCOCn1c(Sc2ccccc2)c(CC)c(=O)[nH]c1=O | CEM | RT-K103N | IIIB TIBO R82913-resistant (RT K103N) | 1.54 µM
CC1(C)C=C2[C@H]3CC[C@@H]4[C@@]5(C)CCC(=O)C(C)(C)[C@@H]5CC[C@@]4(C)[C@]3(C)CC[C@@]2(C(=O)O)CC1 | C8166 |  | IIIB | 7.49 µM
Cc1ccc(C)c(C(Sc2cccc[n+]2[O-])c2ccccc2)c1 | CEM |  | IIIB | ≥20 µg/mL
Cc1cn([C@H]2C[C@H](N=[N+]=[N-])[C@@H](CO)O2)c(=O)[nH]c1=O | C8166 |  | IIIB | 0.0024 µg/mL
CN(CCS(=O)(=O)O)C(=N)N | C8166 |  | IIIB | 29 µg/mL
CC(C)[C@H](NC(=O)OC(C)(C)C)C(=O)NCC(O)C(NC(=O)[C@@H](NC(=O)OC(C)(C)C)C(C)C)Sc1ccccc1 | MT-4 |  | LAV | 0.1 µM
Cc1ccc(C)c(C(Br)S(=O)(=O)c2cccc[n+]2[O-])c1 | CEM |  | IIIB | 20.7 µg/mL
CC(C)(C)c1ccc(OCc2ccccc2)cc1 | C8166 |  | IIIB | 15.48 µg/mL
Cc1ccc(C)c(C(C#N)Sc2cccc[n+]2[O-])c1 | CEM |  | IIIB | >4 µg/mL
CC(C)c1c(Sc2ccccc2)n(COCc2ccccc2)c(=O)[nH]c1=O | CEM |  | IIIB | 0.003 µM
C=C(C)[C@@H]1CC[C@]2(CO)CC[C@]3(C)[C@H](CC[C@@H]4[C@@]5(C)CC[C@H](O)C(C)(C)[C@@H]5CC[C@]43C)[C@@H]12 | C8166 |  | IIIB | 232 µM
C=C(C)[C@@H]1CC[C@]2(C(=O)NCCCCCCCC(=O)N[C@@H](CC(C)C)[C@@H](O)CC(=O)O)CC[C@]3(C)[C@H](CC[C@@H]4[C@@]5(C)CC[C@H](O)C(C)(C)[C@@H]5CC[C@]43C)[C@@H]12 | HeLa P4 + HeLa | GP41-K77R | LAI | <10 µM
CCCCCCCCCC[N+](C)(C)CCCNCc1c(O)cc2c(c1O)-c1cc(ccc1O)[C@H]1NC(=O)[C@@H]3NC(=O)C4NC(=O)[C@@H](Cc5ccc(c(Cl)c5)Oc5cc3cc(c5O)Oc3ccc(cc3Cl)[C@@H](O)[C@H](NC1=O)C(=O)N[C@@H]2C(=O)O)NC(=O)[C@H](N)c1ccc(O)c(c1)Oc1cc(O)cc4c1 | CEM | RT-K103N |  | 6 µM
N[C@H]1CONC1=O | CEM |  | N1T | <5 µg/mL
CCOCn1c(Cc2cc(C)cc(C)c2)c(CC)c(=O)[nH]c1=O | CEM |  | IIIB | 0.001 µM
Cc1cn([C@@H]2O[C@H](C(COC(=O)c3ccccc3)OC(=O)c3ccccc3)C3(OS(=O)(=O)C=C3N)[C@H]2O[Si](C)(C)C(C)(C)C)c(=O)[nH]c1=O | CEM |  | IIIB | >28 µM
CC1(C)CCC[C@@]2(C)[C@H]1CC[C@@]1(CO1)[C@@H]2C/C=C1\CCOC1=O | 1A2 |  | deltaTAT/Rev MC99 | 26.1 µM
CC(C)CN(C[C@H](O)[C@@H](NC(=O)O[C@H]1CCOC1)Sc1ccccc1)S(=O)(=O)c1ccc(N)cc1 | MT-4 |  |  | >50 µM
COc1ccc[n+]([O-])c1SCc1cc(C)ccc1C | CEM |  | IIIB | 1.4 µg/mL
Cc1cn([C@H]2C[C@H](N=[N+]=[N-])[C@@H](CO)O2)c(=O)[nH]c1=O | C8166 |  | IIIB | 0.0024 µg/mL
CC(C)[C@H](NC(=O)N(C)c1ccccc1)C(=O)NC(Sc1ccccc1)C(O)C(NC(=O)[C@@H](NC(=O)N(C)c1ccccc1)C(C)C)Sc1ccccc1 | MT-4 |  | LAV | >10 µM
COc1ccc(-c2oc3cc(OC)cc(O)c3c(=O)c2O)cc1 | 1A2 |  | deltaTAT/Rev MC99 | 43.3 µM
CCOCn1c(Sc2cc(C)cc(C)c2)c(CC)c(=O)[nH]c1=O | CEM | RT-Y181C | IIIB | 0.3 µM
Cc1cn([C@@H]2O[C@H](C3CO[Si](C(C)C)(C(C)C)O[Si](C(C)C)(C(C)C)O3)C3(OS(=O)(=O)C=C3N)[C@H]2O)c(=O)[nH]c1=O | CEM |  | IIIB | >6.3 µM
N#Cc1c(F)c(F)c2nc(N)nc(N)c2c1F | C8166 |  | IIIB | 1.6 µg/mL
COc1cc2c(c(O)c1OC)-c1c(cc3c(c1O)OCO3)C[C@H](C)[C@H](C)C2 | C8166 |  | IIIB | 5.57 µg/mL
O=C(O)c1cn(-c2cccc(N3CCOCC3)c2)c2nc(N3CCN(c4ccccn4)CC3)c(F)cc2c1=O | PBL |  |  | 1 µM
Cc1ccc(CSc2ccccn2)cc1C | CEM |  | IIIB | >4 µg/mL
CC(C)CN(C[C@H](O)[C@H](NC(=O)O[C@H]1CCOC1)Sc1ccccc1)S(=O)(=O)c1ccc(N)cc1 | MT-4 |  |  | >50 µM
COc1ccc(CN(CC(O)C(Sc2ccccc2)N(Cc2ccc(OC)cc2)C(=O)N(C)c2ccccc2)C(=O)N(C)c2ccccc2)cc1 | MT-4 |  | LAV | 0.1–1 µM
O=C(O)c1cn(-c2ccc(N3CCOCC3)cc2)c2c(Cl)c(N3CCN(c4ccccc4)CC3)c(F)cc2c1=O | PBL |  |  | 0.3 µM
CC(C)[C@H](NC(=O)OC(C)(C)C)C(=O)N(Cc1ccccc1)CC(O)C(Sc1ccccc1)N(Cc1ccccc1)C(=O)[C@@H](NC(=O)OC(C)(C)C)C(C)C | MT-4 |  | LAV | 1 µM
Cc1cc(C)cc(Cc2c(C(C)C)c(=O)[nH]c(=O)n2COCCO)c1 | CEM | Nevirapine resistant (RT Y181C) | IIIB | 2.8 µM
CC(C)c1ccc(C(C)C)c(CS(=O)c2cccc[n+]2[O-])c1 | CEM |  | IIIB | ≥4 µg/mL
CC(C)[C@H](NC(=O)OCc1ccccc1)C(=O)NC(Sc1ccccc1)C(O)C(NC(=O)[C@@H](NC(=O)OCc1ccccc1)C(C)C)Sc1ccccc1 | MT-4 |  | LAV | 10 µM
Cc1ccccc1C(C#N)S(=O)c1cccc[n+]1[O-] | CEM |  | IIIB | >0.16 µg/mL
O=C(O)c1cn(-c2ccccc2N2CCOCC2)c2cc(N3CCN(c4ccccc4)CC3)c(F)cc2c1=O | PBL |  |  | 0.3 µM
Cc1ccccc1CS(=O)c1cccc[n+]1[O-] | CEM |  | IIIB | ≥20 µg/mL
O=C(OCc1ccccc1)N(Cc1ccccc1)CC(O)C(Sc1ccccc1)N(Cc1ccccc1)C(=O)OCc1ccccc1 | MT-4 |  | LAV | 10 µM
CC(C)c1ccc(C(C)C)c(CS(=O)(=O)c2cccc[n+]2[O-])c1 | CEM |  | IIIB | ≥4 µg/mL
C=C(C)[C@@H]1CC[C@]2(C(=O)O)CC[C@]3(C)[C@H](CC[C@@H]4[C@@]5(C)CCC(=O)C(C)(C)[C@@H]5CC[C@]43C)[C@@H]12 | C8166 |  | IIIB | 5.81 µM
CCc1c(Sc2ccccc2)n(COCc2ccccc2)c(=O)[nH]c1=O | CEM | Nevirapine resistant (RT Y181C) | IIIB | 0.12 µM
c1ccc(CSc2ccccn2)cc1 | CEM |  | IIIB | >20 µg/mL
CCc1c(Cc2cc(C)cc(C)c2)n(COCCO)c(=O)[nH]c1=O | CEM | RT-E138K | IIIB | 0.2 µM
Cc1ccc(C)c(C(C(N)=O)S(=O)(=O)c2cccc[n+]2[O-])c1 | CEM |  | IIIB | >20 µg/mL
COc1cc(O)c2c(=O)c(O)c(-c3ccc(OC)c(O)c3)oc2c1 | 1A2 |  | deltaTAT/Rev MC99 | 79.9 µM
Cc1cn([C@H]2C[C@H](N=[N+]=[N-])[C@@H](CO)O2)c(=O)[nH]c1=O | C8166 |  | IIIB | 0.0108 µM
CC(C)(O)[C@@H]1CC[C@@]2(C)CCC[C@](C)(O)[C@@H]2C1 | 1A2 |  | deltaTAT/Rev MC99 | 177.2 µM
Cc1ccccc1C(Sc1cccc[n+]1[O-])C(N)=O | CEM |  | IIIB | >100 µg/mL
COC(=O)C(C)NP(=O)(OC[C@@H]1C=C[C@H](n2cc(Cl)c(=O)[nH]c2=O)O1)Oc1ccccc1 | CEM + CEM/0 |  | IIIB | 0.65 µM
CC(C)[C@H](N)C(=O)N(Cc1ccccc1)CC(O)C(Sc1ccccc1)N(Cc1ccccc1)C(=O)[C@@H](N)C(C)C | MT-4 |  | LAV | 10 µM
O=C(O)c1cn(-c2cccc(N3CCOCC3)c2)c2cc(N3CCN(c4ccccc4)CC3)c(F)cc2c1=O | PBL |  |  | 0.45 µM
COc1ccc(CN(CC(O)C(Sc2ccccc2)N(Cc2ccc(OC)cc2)C(=O)OCC(C)C)C(=O)OCC(C)C)cc1 | MT-4 |  | LAV | 10 µM
CC(c1ccc(Cl)cc1)S(=O)c1cccc[n+]1[O-] | CEM |  | IIIB | >0.16 µg/mL
O=C(O)c1cn(-c2ccccc2N2CCOCC2)c2c(Cl)c(N3CCN(c4ccc(F)cc4)CC3)c(F)cc2c1=O | PBL |  |  | 0.6 µM

A second listing of 9 rows from above:

{"compound": "Cc1ccc(C)c(C(C#N)Sc2cccc[n+]2[O-])c1", "cell line": "CEM", "strain or isolate": "IIIB", "result": ">4 µg/mL"}
{"compound": "CCc1c(Sc2ccccc2)n(COCc2ccccc2)c(=O)[nH]c1=O", "cell line": "CEM", "mutations": "Nevirapine resistant (RT Y181C)", "strain or isolate": "IIIB", "result": "0.12 µM"}
{"compound": "O=C(O)c1cn(-c2ccccc2N2CCOCC2)c2c(Cl)c(N3CCN(c4ccc(F)cc4)CC3)c(F)cc2c1=O", "cell line": "PBL", "result": "0.6 µM"}
{"compound": "CC(C)CN(C[C@H](O)[C@H](NC(=O)O[C@H]1CCOC1)Sc1ccccc1)S(=O)(=O)c1ccc(N)cc1", "cell line": "MT-4", "result": ">50 µM"}
{"compound": "CC(C)[C@H](NC(=O)N(C)c1ccccc1)C(=O)NC(Sc1ccccc1)C(O)C(NC(=O)[C@@H](NC(=O)N(C)c1ccccc1)C(C)C)Sc1ccccc1", "cell line": "MT-4", "strain or isolate": "LAV", "result": ">10 µM"}
{"compound": "Cc1cn([C@H]2C[C@H](N=[N+]=[N-])[C@@H](CO)O2)c(=O)[nH]c1=O", "cell line": "C8166", "result": "0.03177 µM"}
{"compound": "CC(C)c1ccc(C(C)C)c(CS(=O)(=O)c2cccc[n+]2[O-])c1", "cell line": "CEM", "strain or isolate": "IIIB", "result": "≥4 µg/mL"}
{"compound": "Cc1cc(C)cc(Cc2c(C(C)C)c(=O)[nH]c(=O)n2COCCO)c1", "cell line": "CEM", "mutations": "Nevirapine resistant (RT Y181C)", "strain or isolate": "IIIB", "result": "2.8 µM"}
{"compound": "CC(C)c1ccc(C(C)C)c(CS(=O)c2cccc[n+]2[O-])c1", "cell line": "CEM", "strain or isolate": "IIIB", "result": "≥4 µg/mL"}

An empty or dashed field is not shown. a–b is a range or a potency band. Rows are shuffled and stem from different studies.